Test system: HepG2 (ATCC HB-8065) cells
Assay: Cytotoxicity assay (PrestoBlue)
Assay type: cell-based, Human
Conditions: Table S1; CC50:IC50, HepG2 cells to either MSSA or MRSA (best ratio)

Row | Compound | SI
1 | N#Cc1ccc(-c2n[nH]nc2C(=O)c2ccccc2O)cc1 [AT100] | 1.82
2 | O=C(c1ccccc1O)c1n[nH]nc1-c1ccc([N+](=O)[O-])cc1 [AT103] | 0.67
3 | O=C(c1ccccc1O)c1n[nH]nc1-c1ccc(Cl)cc1 [AT106] | 12.99
4 | O=C(c1ccccc1O)c1n[nH]nc1-c1cccc(C(F)(F)F)c1 [AT116] | 16.01
5 | N#Cc1ccc(-c2n[nH]nc2C(=O)c2ccc(Cl)cc2O)cc1 [AT120] | 9.12
6 | Cc1ccc(-c2n[nH]nc2C(=O)c2cccc(Cl)c2O)cc1 [AT123] | 4.71
7 | N#Cc1ccc(-c2n[nH]nc2C(=O)c2cccc(Br)c2O)cc1 [AT124] | 0.29
8 | O=C(c1ccccc1O)c1n[nH]nc1-c1ccc(Br)s1 [AT137] | 12.86
